Data taken from PubChem BioAssay AID704 (The Scripps Research Institute Molecular Screening Center, 2007).
The list shows a part of the results, in another mix than the full data. The source made the active and inactive calls.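 The calls were made as follows: active = inhibition above the screen-wide mean plus 3 SD (cut at about 35% in these data); inactive = the rest.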

By UniProt entry, the sequences of proteins in these tests, tags left out. Where a name states a change or a piece, a line headed by the entry shows the natural chain unless it says otherwise.
UniProt P05866: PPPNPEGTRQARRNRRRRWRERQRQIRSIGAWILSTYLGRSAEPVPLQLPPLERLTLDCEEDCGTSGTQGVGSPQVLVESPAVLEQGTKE

biological target: Protein Rev (Human immunodeficiency virus type 1 group M subtype B (isolate WMJ22)) (UniProt P05866); test: disruptors of Rev peptide-RRE RNA complex – biochemical, FRET, protein-RNA interaction, primary screen (AID 704); conditions: Rev peptide-RRE RNA binding, at 8 µM, hits give high values
Method in brief: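 Assay system: Labelled RRE RNA duplex and labelled Rev peptide | Times: 5 min preincubation and 15 min binding, 25 °C | Detection: FRET, ex 480 nm, em 540 and 671 nm | Evaluation: % inhibition of FRET ratio versus controls | Benchmarks: DMSO wells as 0% and neomycin B wells as 100% inhibition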

`CCOC(=O)NC(Sc1ccccc1)C(Cl)(Cl)Cl` (stereo not drawn) was tested. Which inhibition did it give?
The inhibition was inactive: 9.96%.

For `COC(=O)c1cc2c(s1)N=C(c1ccccc1)N(C)P2(=O)N1CCOCC1` (stereo not drawn), which inhibition is on record?
The inhibition was inactive: 7.49%.

With `CCC(=O)N1C2C3N(C(=O)CC)C1C1N(C(=O)CC)C(C(N1C(=O)CC)N3C(=O)CC)N2C(=O)CC` as the molecule, how does the inhibition read?
The inhibition was inactive: 3.08%.

For `O=P1(Nc2nc3ccc(Cl)cc3s2)COc2ccccc2O1` (stereo not drawn), which inhibition is on record?
The inhibition was inactive: 1.75%.

Which inhibition does the source give for `c1nnnn1CCn1cnnn1` here?
Its inhibition is inactive: 5.21%.

How did the inhibition turn out when `O=P(Nc1nccs1)(c1ccccc1)c1ccccc1` was run?
The inhibition was inactive: -4.31%.

With `O=C(OC1CN2CCC1CC2)c1cccc(Cl)c1` (stereo not drawn) as the molecule, how does the inhibition read?
Its inhibition is inactive: 0.88%.

For `O=[N+]([O-])c1cccc2n[nH]nc12`, which inhibition is on record?
Its inhibition is inactive: 5.86%.

`CC(=O)N1C2C3N(C(C)=O)C1C1N(C(C)=O)C(C(N1C(C)=O)N3C(C)=O)N2C(C)=O` was tested. Which inhibition did it give?
Its inhibition is inactive: 3.38%.

How did the inhibition turn out when `CCc1nc2c(n1)c1c(non1O)c1c2no[n+]1[O-]` was run?
Its inhibition is inactive: 5.52%.

For `CC1CCN(C(=O)Oc2c(Cl)cc(Cl)c3cccnc23)CC1`, which inhibition is on record?
Its inhibition is inactive: 6.69%.

`CN1CCCC(OC(=O)C(c2ccccc2)c2ccccc2)C1` (stereo not drawn) was tested. Which inhibition did it give?
Its inhibition is inactive: -3.79%.

How did the inhibition turn out when `CC(C)CC(=O)NC(Sc1ccc(Cl)cc1)C(Cl)(Cl)Cl` (stereo not drawn) was run?
Its inhibition is inactive: 12.6%.

How did the inhibition turn out when `Oc1ccccc1CNc1ccccn1` was run?
Its inhibition is inactive: 5.73%.

With `Cc1c2non([O-])c-2c(C)[n+](=O)[n+]1[O-]` as the molecule, how does the inhibition read?
The inhibition was inactive: -3.21%.

`CCOP(=O)(Nc1ccccc1)OCC` was tested. Which inhibition did it give?
Its inhibition is inactive: 4.31%.

For `CCN(CC)C(=S)SC(NC=O)C(Cl)(Cl)Cl` (stereo not drawn), which inhibition is on record?
The inhibition was inactive: -1.29%.

`ClCCSc1nnc(-c2cccnc2)o1` was tested. Which inhibition did it give?
Its inhibition is inactive: 3.76%.

For `O=C(OC1CN2CCC1CC2)C12CC3CC(CC(C3)C1)C2` (stereo not drawn), which inhibition is on record?
Its inhibition is inactive: -1.19%.

For `O=C(COc1ccccc1)OC1CN2CCC1CC2` (stereo not drawn), which inhibition is on record?
The inhibition was inactive: 8.41%.

For `COP1(=S)c2c(C)nn(CCC#N)c2N=C(c2ccc(F)cc2)N1C` (stereo not drawn), which inhibition is on record?
Its inhibition is inactive: 3.69%.

How did the inhibition turn out when `CCC(C)N(CC(C)C)C(=S)SC(NC(C)=O)C(Cl)(Cl)Cl` (stereo not drawn) was run?
The inhibition was inactive: 0.97%.

With `Cc1nn(-c2ccccc2)c2c1P(=O)(N1CCOCC1)N(C)C(c1ccccc1)=N2` (stereo not drawn) as the molecule, how does the inhibition read?
The inhibition was inactive: 2.89%.

`O=P1(Nc2ccc(Br)cn2)COc2ccccc2OC1` was tested. Which inhibition did it give?
The inhibition was inactive: 4.71%.

Which inhibition does the source give for `Cc1ccc(OCC(=O)OC2CN3CCC2CC3)cc1` (stereo not drawn) here?
The inhibition was inactive: 0.2%.

How did the inhibition turn out when `O=P1(Nc2ncccn2)COc2ccccc2OC1` was run?
Its inhibition is inactive: 0.81%.

How did the inhibition turn out when `Clc1n[nH]nc1-c1nn[nH][15n]1` was run?
The inhibition was inactive: 3.86%.

With `O=P1(Nc2ccccn2)COc2ccccc2OC1` as the molecule, how does the inhibition read?
The inhibition was inactive: 5.2%.

For `CC1(CBr)Cn2c(nc3ccccc3c2=O)S1` (stereo not drawn), which inhibition is on record?
Its inhibition is inactive: 2.21%.

For `Cc1cccc(OCC(=O)OC2CN3CCC2CC3)c1` (stereo not drawn), which inhibition is on record?
Its inhibition is inactive: 9.25%.

`CCOP1(=S)c2c(C)nn(CCC#N)c2N=C(c2ccccc2F)N1C` (stereo not drawn) was tested. Which inhibition did it give?
The inhibition was inactive: 7.79%.

How did the inhibition turn out when `O=[N+]([O-])c1ccc2c(c1)nnn2O` was run?
The inhibition was inactive: 1.94%.

`CCOP1(=S)c2c(C)nn(CCC#N)c2N=C(c2ccc(F)cc2)N1C` (stereo not drawn) was tested. Which inhibition did it give?
The inhibition was inactive: 8%.
